Measured values from several laboratories, pooled; numbers as filed in NIAID ChemDB.

All rows: tests on isolated targets

Percent inhibition refers to the dose given; in toxicity tests it is the harm to the cells. Conditions beyond the fields shown may differ between rows. Two numbers with a dash give a range or band. ICn: concentration for n% inhibition. Fold resistance: result on the changed form divided by that on wild type. An empty or dashed field is not shown.

compound,strain or isolate,tested at,method,setting,endpoint,changes,target,organism,result
N[C@@H](CC(=O)O)C(=O)N[C@@H](CCC(=O)O)C(=O)N[C@H](C(=O)N[C@@H](CC(=O)O)C(=O)N[C@@H](CC1CCCCC1)C(=O)C(N)(CCC(F)F)C(=O)C(=O)O)C(c1ccccc1)c1ccccc1,,,,,IC50,,NS3 serine protease,Hepatitis C virus,0.001 µM
CC(=O)N[C@@H](CC(=O)O)C(=O)N[C@H](CC(C(=O)O)C(=O)O)C(=O)N[C@@H](Cc1c[nH]c2ccccc12)C(=O)N[C@@H](CCC(=O)O)C(=O)N[C@@H](CC1CCCCC1)C(=O)N[C@@H](CS)C(=O)C(=O)O,,,,,Ki,,NS3/NS4A serine protease,Hepatitis C virus,0.00002 µM
O=C(O)[C@H](Cc1ccccc1)N(Cc1cccc(F)c1)C(=O)c1ccc(Cl)cc1Cl,,,,,IC50,,RNA-dependent RNA polymerase,Hepatitis C virus,<5 µM
CC(=O)N[C@@H](CC(=O)O)C(=O)N[C@H](CC(C(=O)O)C(=O)O)C(=O)N[C@H](C(=O)N[C@@H](CCC(=O)O)C(=O)N[C@@H](Cc1cccc2ccccc12)C(=O)N[C@@H](CS)C(=O)C(=O)O)C(c1ccccc1)c1ccccc1,,,,,Ki,,NS3/NS4A serine protease,Hepatitis C virus,0.0003 µM
CN1CCNCCC1c1cc(C(=O)Nc2ccc3[nH]ncc3c2)c(F)cc1F,,0.01 µg/mL,,,inhibition,,Reverse transcriptase,Hepatitis B virus,40%
O=C(O)CCP(=O)(O)O,,,,,IC50,,DNA polymerase,Hepatitis B virus,>500 µM
O=C(O)c1nc(-c2sccc2NC(=O)C(c2ccccc2)C2CCCC2)[nH]c(=O)c1O,,,,,IC50,,HCV polymerase,Hepatitis C virus,<25 µM
C=CCC(N)(C=O)C(=O)[C@H](CC(C)C)NC(=O)C(NC(=O)[C@H](Cc1cccc(C)c1)NC(=O)[C@H](CCC(=O)O)NC(=O)[C@H](CC(=O)O)NC(=O)CCC(=O)O)C(C)(C)C,,,,,IC50,,NS3 serine protease,Hepatitis C virus,0.09 µM
O=C(Cc1cccc2ccccc12)Nc1ccsc1-c1nc(C(=O)O)c(O)c(=O)[nH]1,,,,,IC50,,HCV polymerase,Hepatitis C virus,<25 µM
C[C@@]1(O)[C@H](O)[C@@H](COP(=O)(O)OP(=O)(O)OP(=O)(O)O)O[C@H]1c1ccc2c(N)ncnn12,GT7a,,nucleotide incorporation,,IC50,,Nonstructural protein 5B,Hepatitis C virus,0.81 µM
CC1=NCCN1c1cc(C(=O)Nc2ccc3[nH]ncc3c2)c(F)cc1F,,,,,IC50,,Reverse transcriptase,Hepatitis B virus,0.1–1 µg/mL
O=C(O)c1nc(-c2cccc(CS(=O)(=O)c3cccs3)c2)[nH]c(=O)c1O,,,,,IC50,,HCV polymerase,Hepatitis C virus,<100 µM
Oc1cc(O)c2c(c1)OC(c1ccc(O)c(O)c1)C(O)C2,J4,20 µM,SYBR Green,,inhibition,,Replicase complex,Hepatitis C virus,17.7%
CN1C(=O)/C(=C\c2ccc([N+](=O)[O-])cc2)SC1=S,,,,,IC50,,NS5B polymerase,Hepatitis C virus,≤30 µM
CC(=O)N[C@@H](CC(=O)O)C(=O)N[C@H](CC(C(=O)O)C(=O)O)C(=O)N[C@H](C(=O)N[C@@H](CCC(=O)O)C(=O)N[C@@H](Cc1ccc(O)cc1)C(=O)N[C@@H](CS)C(=O)C(=O)O)C(c1ccccc1)c1ccccc1,,,,,Ki,,NS3/NS4A serine protease,Hepatitis C virus,0.00003 µM
C=C[C@@H]1C[C@]1(NC(=O)[C@@H]1C[C@@H](Oc2nccc3ccc(Br)cc23)CN1C(C)=O)C(=O)NS(=O)(=O)C1CC1,1b D168V,,FRET,,IC50,,Nonstructural protein 3/4A,Hepatitis C virus,>3 µM
Cc1ccc2nc(-c3ccc(N)cc3)sc2c1,,,,,IC50,,Nonstructural protein 3 NTPase/helicase,Hepatitis C virus,>25 µg/mL
O=C(O)[C@H](Cc1ccccc1)N(Cc1cccc(Br)c1)S(=O)(=O)c1ccc(Cl)cc1Cl,,,,,IC50,,RNA-dependent RNA polymerase,Hepatitis C virus,>20 µM
O=C(Nc1ccc2[nH]ncc2c1)c1cc(N2CCC(O)CC2)c(F)cc1F,,,,,IC50,,Reverse transcriptase,Hepatitis B virus,0.01–0.1 µg/mL
CC(O)(P(=O)(O)O)P(=O)(O)O,,,,,IC50,,DNA polymerase,Hepatitis B virus,>500 µM
O=c1cc(-c2ccc(O)cc2)oc2cc(O)ccc12,J4,20 µM,SYBR Green,,inhibition,,Replicase complex,Hepatitis C virus,25.7%
O=C(NCc1cnc2ccccc2c1)Nc1ccsc1-c1nc(C(=O)O)c(O)c(=O)[nH]1,,,,,IC50,,HCV polymerase,Hepatitis C virus,<25 µM
O=C1/C(=C\c2ccc(-c3cc(C(F)(F)F)ccc3Cl)o2)SC(=S)N1NS(=O)(=O)c1ccccc1,,,,,IC50,,NS5B polymerase,Hepatitis C virus,≤30 µM
O=c1c(O)c(-c2ccc(O)c(O)c2)oc2cc(O)c(O)c(O)c12,J4,,SYBR Green,genotype 1b,IC50,,Replicase complex,Hepatitis C virus,4.3 µM
CC(=O)N[C@@H](CC(=O)O)C(=O)N[C@H](CC(C(=O)O)C(=O)O)C(=O)N[C@H](C(=O)N[C@@H](CCC(=O)O)C(=O)N[C@@H](CC1CCCCC1)C(=O)N[C@@H](CS)C(=O)C(=O)O)c1ccccc1,,,,,Ki,,NS3/NS4A serine protease,Hepatitis C virus,0.001 µM
O=C(Nc1ccsc1-c1nc(C(=O)O)c(O)c(=O)[nH]1)OCc1ccccc1,,,,,IC50,,HCV polymerase,Hepatitis C virus,<25 µM
CN1CCN(c2cc(C(=O)Nc3ccc4[nH]ncc4c3)c(F)cc2F)CC1,,0.1 µg/mL,,,inhibition,,Nonstructural protein 5B,Hepatitis C virus,0%
O=C(O)[C@H](Cc1ccccc1)N(Cc1cccc(Br)c1)C(=O)COc1ccc(Cl)cc1,,,,,IC50,,RNA-dependent RNA polymerase,Hepatitis C virus,>20 µM
O=C(CCCCC(=O)Nc1ccc(-c2nc3ccccc3[nH]2)cc1)Nc1ccc(-c2nc3ccccc3[nH]2)cc1,,,,,IC50,,HCV NS3 helicase,Hepatitis C virus,0.7 µM
CSCC[C@H](NC(=O)[C@H](CCC(=O)O)NC(=O)[C@H](CC(=O)O)NC(C)=O)C(=O)N[C@@H](CCC(=O)O)C(=O)N[C@@H](CC1CCCCC1)C(=O)N[C@@H](CS)C(=O)O,,,,,Ki,,NS3/NS4A serine protease,Hepatitis C virus,0.18 µM
O=C(O)CP(=O)(O)O,,,,,IC50,,DNA polymerase,Hepatitis B virus,>500 µM
O=C(Nc1ccc2[nH]ncc2c1)c1cc(N2CCNCC2)c(F)cc1F,,1 µg/mL,,,inhibition,,Reverse transcriptase,Hepatitis B virus,65%
CC(O)(C(=O)O)P(=O)(O)O,,,,,IC50,,DNA polymerase,Hepatitis B virus,>500 µM
O=C(Nc1ccc2cn[nH]c2c1)c1cc(C2CCNCCN2)c(F)cc1F,,0.01 µg/mL,,,inhibition,,Reverse transcriptase,Hepatitis B virus,31%
O=C(/C=C/C(=O)Nc1ccc(-c2nc3ccccc3s2)cc1)Nc1ccc(-c2nc3ccccc3s2)cc1,,,,,IC50,,Nonstructural protein 3 NTPase/helicase,Hepatitis C virus,>25 µg/mL
O=C1CC(c2ccc(O)cc2)Oc2cc(O)ccc21,J4,20 µM,SYBR Green,,inhibition,,Replicase complex,Hepatitis C virus,6.1%
CS(=O)(=O)NN1C(=O)/C(=C\c2ccc(Cl)c(Cl)c2)SC1=S,,,,,IC50,,NS5B polymerase,Hepatitis C virus,≤30 µM
Cc1c(CC(=O)Nc2ccsc2-c2nc(C(=O)O)c(O)c(=O)[nH]2)sc2ccccc12,,,,,IC50,,HCV polymerase,Hepatitis C virus,<25 µM
O=C(P(=O)(O)O)P(=O)(O)O,,,,,IC50,,DNA polymerase,Hepatitis B virus,~500 µM
O=C(CCC(=O)Nc1ccc(-c2nc3ccccc3s2)cc1)Nc1ccc(-c2nc3ccccc3s2)cc1,,,,,IC50,,Nonstructural protein 3 NTPase/helicase,Hepatitis C virus,>25 µg/mL
O=C(Nc1cccc(-c2nc(C(=O)O)c(O)c(=O)[nH]2)c1NS(=O)(=O)c1ccc2ccccc2c1)c1cccs1,,,,,IC50,,HCV polymerase,Hepatitis C virus,<100 µM
O=C(O)C(O)P(=O)(O)O,,,,,IC50,,DNA polymerase,Hepatitis B virus,>500 µM
O=C(Nc1ccc2cn[nH]c2c1)c1cc(N2CCNCC2)c(F)cc1F,,0.1 µg/mL,,,inhibition,,Reverse transcriptase,Hepatitis B virus,40%
O=C(CCCCC(=O)Nc1nc2ccccc2[nH]1)Nc1nc2ccccc2[nH]1,,,,,IC50,,Nonstructural protein 3 NTPase/helicase,Hepatitis C virus,>25 µg/mL
O=C(NCc1ccccc1)Nc1cscc1-c1nc(C(=O)O)c(O)c(=O)[nH]1,,,,,IC50,,HCV polymerase,Hepatitis C virus,<25 µM
CN1CCNCCC1c1cc(C(=O)Nc2ccc3cn[nH]c3c2)c(F)cc1F,,,,,IC50,,Reverse transcriptase,Hepatitis B virus,0.1–1 µg/mL
O=C(CCCCCCCC(=O)Nc1ccc(-c2nc3ccccc3[nH]2)cc1)Nc1ccc(-c2nc3ccccc3[nH]2)cc1,,,,,IC50,,Nonstructural protein 3 NTPase/helicase,Hepatitis C virus,>25 µg/mL
C[C@@]1(O)[C@H](O)[C@@H](COP(=O)(O)OP(=O)(O)OP(=O)(O)O)O[C@H]1c1cnn2c(N)ncnc12,GT-1b Con1,,nucleotide incorporation,,IC50,,Nonstructural protein 5B,Hepatitis C virus,33 µM
O=C1NC(=S)SC1=Cc1ccccc1Cl,,,,,IC50,,NS5B polymerase,Hepatitis C virus,≤30 µM
C[C@@]1(O)[C@H](O)[C@@H](COP(=O)(O)OP(=O)(O)OP(=O)(O)O)O[C@@]1(C#N)c1ccc2c(N)ncnn12,2a JFH-1,,radiometric,,fold resistance,S282T,Nonstructural protein 5B,Hepatitis C virus,91
COc1cc(C)c(S(=O)(=O)N(Cc2ccc(Br)cc2)C(Cc2ccccc2)C(=O)O)c(C)c1C,,,,,IC50,,RNA-dependent RNA polymerase,Hepatitis C virus,5–20 µM
O=C(CCC(=O)Nc1nc2ccccc2[nH]1)Nc1nc2ccccc2[nH]1,,,,,IC50,,Nonstructural protein 3 NTPase/helicase,Hepatitis C virus,>25 µg/mL

Repeating the final 3 entries:

compound	strain or isolate	tested at	method	setting	endpoint	changes	target	organism	result
C[C@@]1(O)[C@H](O)[C@@H](COP(=O)(O)OP(=O)(O)OP(=O)(O)O)O[C@@]1(C#N)c1ccc2c(N)ncnn12	2a JFH-1		radiometric		fold resistance	S282T	Nonstructural protein 5B	Hepatitis C virus	91
COc1cc(C)c(S(=O)(=O)N(Cc2ccc(Br)cc2)C(Cc2ccccc2)C(=O)O)c(C)c1C					IC50		RNA-dependent RNA polymerase	Hepatitis C virus	5–20 µM
O=C(CCC(=O)Nc1nc2ccccc2[nH]1)Nc1nc2ccccc2[nH]1					IC50		Nonstructural protein 3 NTPase/helicase	Hepatitis C virus	>25 µg/mL